Pooled drug test results. Numbers come from NIAID ChemDB, via PubChem.

All rows: growth or infection tests; species: HIV-1; method: p24; endpoint: EC50

Lines come from different laboratories, so protocols vary. ECn is the concentration giving n% inhibition of infection, replication or growth. a–b is a range or a potency band. An empty or dashed field is not shown.

Cc1ccnc(C)c1C(=O)N1CCC(C)(N2CCN([C@@H](C)c3ccc(C(F)(F)F)cc3)[C@@H](C)C2)CC1 ; cell line: PBMC ; strain: JR-FL ; result: 0.0002 µM
COC(=O)[C@H](C)NP(=O)(OC[C@@H]1C=C[C@H](n2cc(C)c(=O)[nH]c2=O)O1)Oc1ccc(C#N)cc1 ; cell line: PBMC ; strain: IIIB ; result: 0.001 µM
COc1ccc(S(=O)(=O)O)cc1N=Nc1c(S(=O)(=O)O)cc2cc(Nc3nc(Nc4ccccc4)nc(Nc4cc(C)c(N=Nc5cc(S(=O)(=O)O)cc6cc(S(=O)(=O)O)cc(O)c56)cc4OC)n3)ccc2c1O ; cell line: MT-2 ; strain: IIIB ; result: 1.18 µM
C=C(C)[C@@H]1CC[C@]2(C(=O)NCCCCCCCC(=O)Nc3ccc(C(=O)O)cc3)CC[C@]3(C)[C@H](CC[C@@H]4[C@@]5(C)CC[C@H](OC(=O)CC(C)(C)C(=O)O)C(C)(C)[C@@H]5CC[C@]43C)[C@@H]12 ; cell line: MT-4 ; strain: NL4-3 ; result: 0.007 µM
COc1cc([N+](=O)[O-])c(S(=O)(=O)[O-])cc1N=N/C(=N\Nc1cc(S(=O)(=O)[O-])c([N+](=O)[O-])cc1OC)C(=O)Nc1ccccc1 ; cell line: MT-2 ; strain: IIIB X4 ; result: 23.59 µM
O=C(c1c(O)cc(O)cc1O)c1c(-c2ccc(O)cc2)oc2cc(O)c3c(c12)O[C@H](c1ccc(O)cc1)[C@@H](O)C3 ; cell line: MOLT-4/HIV-1(IIIB) + MOLT-4 ; strain: IIIB ; result: >30 µg/mL
C=C(C)[C@@H]1CC[C@]2(C(=O)N[C@H](CC(C)C)C(=O)O)CC[C@]3(C)[C@H](CC[C@@H]4[C@@]5(C)CC[C@H](OC(=O)C(C)(C)CC(=O)O)C(C)(C)[C@@H]5CC[C@]43C)[C@@H]12 ; cell line: MT-4 ; strain: NL4-3 ; result: 0.01 µM
Cc1cn([C@H]2C=C[C@@H](CO)O2)c(=O)[nH]c1=O ; cell line: MM + M/M ; strain: BaL ; result: 0.25 µM
Nc1ncnc2c1ncn2[C@@H]1O[C@H](COP(=O)([O-])O)[C@@H](O)[C@H]1OP(=O)([O-])OC[C@@H]1C[C@@H](OP(=O)([O-])OC[C@@H]2C[C@@H](O)[C@H](n3cnc4c(N)ncnc43)O2)[C@H](n2cnc3c(N)ncnc32)O1 ; cell line: H9 ; strain: IIIB ; result: 1 µM
CC(C)[C@H](NC(=O)[C@H](Cc1cc[n+]([O-])cc1)CS(=O)(=O)C(C)(C)C)C(=O)N[C@@H](Cc1ccccc1)[C@@H](O)[C@H](O)[C@H](Cc1ccccc1)NC(=O)[C@@H](NC(=O)[C@H](Cc1cc[n+]([O-])cc1)CS(=O)(=O)C(C)(C)C)C(C)C ; cell line: PBLC ; strain: D34 ; result: 50 µM
NC(=O)CNC(=O)[C@@H]1CCCN1 ; cell line: H9 ; strain: SF2 ; result: >100 µM
CCC(C)[C@H](NC(=O)[C@H](Cc1cccc2ccccc12)CS(=O)(=O)C(C)(C)C)C(=O)N[C@@H](Cc1ccccc1)[C@@H](O)[C@H](O)[C@H](Cc1ccccc1)NC(=O)[C@@H](NC(=O)[C@H](Cc1cccc2ccccc12)CS(=O)(=O)C(C)(C)C)C(C)CC ; cell line: PBLC ; strain: D34 ; result: 0.01 µM
C[C@@]12CCC[C@@](C)(C(=O)O)C1CC[C@@]13C[C@@H](CCC12)[C@@H](CO)C3 ; cell line: H9 ; strain: IIIB ; result: >100 µg/mL
CO[C@H]1C[C@@H]2CC[C@@H](C)[C@@](O)(O2)C(=O)C(=O)N2CCCC[C@H]2C(=O)O[C@H]([C@H](C)C[C@@H]2CC[C@@H](O)[C@H](OC)C2)CC(=O)[C@H](C)/C=C(\C)[C@@H](O)[C@@H](OC)C(=O)[C@H](C)C[C@H](C)/C=C/C=C/C=C/1C ; cell line: PBMC ; strain: 93BR029 R5 clinical isolate ; result: <0.001 µM
C=C(C)[C@@H]1CC[C@]2(C(=O)NCCCCCCCC(=O)N[C@@H](CC(C)C)[C@H](O)CC(=O)O)CC[C@]3(C)[C@H](CC[C@@H]4[C@@]5(C)CC[C@H](OC(=O)CC(C)(C)C(=O)O)C(C)(C)[C@@H]5CC[C@]43C)[C@@H]12 ; cell line: MT-4 ; strain: NL4-3 ; result: 0.096 µM
COc1cc(N=Nc2cc(S(=O)(=O)O)cc3cc(S(=O)(=O)O)cc(O)c23)c(C)cc1Nc1nc(Nc2ccccc2)nc(Nc2ccccc2)n1 ; cell line: MT-2 ; strain: IIIB ; result: 11.39 µM
CN1CCn2c3c(c(O)c2C1=O)C(=O)N(Cc1ccc(F)cc1)CC3 ; cell line: MT-4 ; result: <10 µM
Cc1cc(C)cc(S(=O)(=O)c2c(C(N)=O)[nH]c3ccc(Cl)cc23)c1 ; cell line: MT-4 ; result: <0.005 µM
CSCC[C@H](NC(=O)[C@H](Cc1ccc(O)cc1)NC(=O)[C@H](CCCCN)NC(=O)[C@@H](N)Cc1c[nH]c2ccccc12)C(=O)N[C@H](C(=O)N[C@H](CCSC)C(=O)O)C(C)C ; cell line: PBMC ; strain: BAL R5 ; result: >10 µM
Cn1cc(C(=O)O)c(=O)c2cc(N)c(N3CCN(c4nccs4)CC3)cc21 ; cell line: PBMC ; strain: IIIB ; result: 0.032 µg/mL
CCN1c2ncc(CCOc3cccc4c3CN(O)C4=O)cc2C(=O)N(C)c2cccnc21 ; cell line: C8166 ; changes: RT-K103N Y181C ; result: 0.01–0.05 µM
COC(=O)[C@H](C)NP(=O)(OC[C@@H]1C=C[C@H](n2cc(C)c(=O)[nH]c2=O)O1)Oc1ccc(F)cc1 ; cell line: PBMC ; strain: IIIB ; result: 0.001 µM
CN(C)CCCNC(=O)CCNC(=O)c1cc(NC(=O)c2nc(NC(=O)CCNC(=O)c3cc(NC(=O)c4nc(NC(=O)CCCNC(=O)c5cc(NC(=O)c6nc(NC(=O)CCNC(=O)c7cc(NC(=O)c8nccn8C)cn7C)cn6C)cn5C)cn4C)cn3C)cn2C)cn1C ; cell line: PBMC ; strain: WEAU 1.6 ; result: <1 µM
CC(=O)OC[C@@H]1CC23CCC4[C@@](C)(CCC[C@@]4(C)C(=O)O)C2CC[C@H]1C3 ; cell line: H9 ; strain: IIIB ; result: >100 µg/mL
COC(=O)[C@H](C)NP(=O)(OC[C@@H]1C=C[C@H](n2cc(C)c(=O)[nH]c2=O)O1)Oc1ccc(Cl)cc1 ; cell line: PBMC ; strain: IIIB ; result: 0.001 µM
CC(C)[C@H](NC(=O)[C@H](Cc1cccc2ccccc12)CS(=O)(=O)C(C)(C)C)C(=O)N[C@@H](Cc1ccccc1)[C@H](N)[C@H](O)[C@H](Cc1ccccc1)NC(=O)[C@@H](NC(=O)[C@H](Cc1cccc2ccccc12)CS(=O)(=O)C(C)(C)C)C(C)C ; cell line: PBLC ; strain: D34 ; result: >100 µM
O=C(O)C(O)c1ccccc1 ; cell line: CD4+ T-CELLS + CD4 ; strain: IIIB ; result: <10 µg/mL
CCN1c2ncc(CCOc3cccc4c3CN(C)C(=O)N4C)cc2C(=O)N(C)c2cccnc21 ; cell line: C8166 ; strain: IIIB ; result: <0.01 µM
Nc1ncnc2c1ncn2[C@@H]1O[C@H](COP(=O)([O-])O)[C@@H](O)[C@H]1OP(=O)([O-])OC[C@H]1O[C@@H](n2cnc3c(N)ncnc32)[C@H](OP(=O)([O-])OC[C@@H]2C[C@@H](O)[C@H](n3cnc4c(N)ncnc43)O2)[C@@H]1O ; cell line: H9 ; strain: IIIB ; result: >1 µM
Cc1cc(C)cc(S(=O)(=O)c2c(C(=O)NNCCO)[nH]c3ccc(Cl)cc23)c1 ; cell line: MT-4 ; result: <0.004 µM
Cn1cc(C(=O)O)c(=O)c2cc(N)c(N3CCN(c4cnccn4)CC3)cc21 ; cell line: PBMC ; strain: IIIB ; result: 0.045 µg/mL
CC(C)(C)S(=O)(=O)C[C@@H](Cc1cccc2ccccc12)C(=O)N[C@@H](CCC(=O)O)C(=O)N[C@@H](Cc1ccccc1)[C@@H](O)[C@H](O)[C@H](Cc1ccccc1)NC(=O)[C@H](CCC(=O)O)NC(=O)[C@H](Cc1cccc2ccccc12)CS(=O)(=O)C(C)(C)C ; cell line: PBLC ; strain: D34 ; result: >1 µM
NCC(=O)N1CCC[C@H]1C(=O)NCC(N)=O ; cell line: PBMC ; strain: Clinical isolates ; result: 14 µM
O=C1CCC(=O)N1CCCCCCc1ccc2c3cc(CO)ccc3c3cc(CO)ccc3c2c1 ; cell line: H9 ; strain: NL4-3 ; result: 0.5 µM
C[C@@]12CCC[C@@](C)(O)C1CCC13C[C@H](CCC12)[C@](O)(CO)C3 ; cell line: H9 ; strain: IIIB ; result: >100 µg/mL
CC(C)[C@H](NC(=O)[C@H](Cc1cccc2ccccc12)CS(=O)(=O)C(C)(C)C)C(=O)N[C@@H](Cc1ccccc1)[C@@H](O)[C@@H](N=[N+]=[N-])[C@H](Cc1ccccc1)NC(=O)[C@@H](NC(=O)[C@H](Cc1cccc2ccccc12)CS(=O)(=O)C(C)(C)C)C(C)C ; cell line: PBLC ; strain: D34 ; result: 100 µM
CCN1c2ncc(CCOc3cccc4c3CNC4=O)cc2C(=O)Nc2c(C)ccnc21 ; cell line: C8166 ; strain: IIIB ; result: <0.01 µM
O=C(O)c1cn(C2CC2)c2c(OC(F)F)c(N3CCN(c4ccc(F)cc4)CC3)c(F)cc2c1=O ; cell line: MOLT-4 ; strain: IIIB ; result: 0.043 µM
O=C(Nc1cc(NC(=O)c2ccccc2)cc(-c2nc3ccccc3c(=O)o2)c1)c1ccccc1 ; cell line: MT-2 ; strain: IIIB ; result: >10 µM
CC(=O)OC[C@]1(O)CC23CCC4[C@@](C)(CCC[C@@]4(C)C=O)C2CC[C@H]1C3 ; cell line: H9 ; strain: IIIB ; result: >100 µg/mL
C=C(C)[C@@H]1CC[C@]2(C(=O)NCCCCCCCCCCC(=O)O)CC[C@]3(C)[C@H](CC[C@@H]4[C@@]5(C)CC[C@H](OC(=O)C(C)(C)CC(=O)O)C(C)(C)[C@@H]5CC[C@]43C)[C@@H]12 ; cell line: MT-4 ; strain: NL4-3 ; result: 0.035 µM
CC(C)[C@H](NC(=O)CCS(=O)(=O)c1ccncc1)C(=O)N[C@@H](Cc1ccccc1)[C@@H](O)[C@H](O)[C@H](Cc1ccccc1)NC(=O)[C@@H](NC(=O)CCS(=O)(=O)c1ccncc1)C(C)C ; cell line: PBLC ; strain: D34 ; result: 1.2 µM
CCN1c2ncc(CCOc3cccc4c3CNC(=O)N4C)cc2C(=O)N(C)c2cccnc21 ; cell line: C8166 ; changes: RT-K103N Y181C ; result: <0.01 µM
C[C@@]12CCC[C@@](C)(O)[C@H]1CC[C@@]13C[C@@H](CC[C@H]12)[C@H](C(=O)O)C3 ; cell line: H9 ; strain: IIIB ; result: >100 µg/mL
CC(C)CN(C[C@@H](O)[C@H](Cc1ccccc1)NC(=O)O[C@H]1CO[C@H]2OCC[C@H]21)S(=O)(=O)c1ccc2nc(NC3CCN(C4CCCC4)CC3)sc2c1 ; cell line: PBMC ; strain: SF2 ; result: 2.3 nM
CC(C)=CCOc1cc(NC(=S)c2ccoc2C)ccc1Cl ; cell line: MAC ; strain: BaL ; result: 0.03 µM
Nc1nc2c(ncn2CCOCP(=O)(O)O)c(=O)[nH]1 ; result: 0.08 µM
COc1ccc(CCNC(=O)c2ccc(C(=O)NCCc3ccc(OC)c(OC)c3)nc2)cc1OC ; cell line: MT-2 ; strain: IIIB ; result: >10 µM
CCN1c2ncc(CCOc3cccc4c3CNC(=O)N4)cc2C(=O)N(C)c2cccnc21 ; cell line: C8166 ; strain: IIIB ; result: <0.01 µM
NCC(N)=O ; cell line: H9 ; strain: IIIB ; result: 11 µM
C=C1C[C@@]23CC[C@H]4[C@@](C)(CCC[C@@]4(C)C(=O)O)[C@@H]2CC[C@@H]1C3 ; cell line: H9 ; strain: IIIB ; result: >100 µg/mL
CC1=CCC([C@@H](C)C2CC[C@@]3(C)C4=C(C=C5C=CC(=O)OC(C)(C)[C@@H]5[C@H](O)C4)CC[C@]23C)OC1=O ; cell line: H9 ; strain: IIIB ; result: >14.3 µg/mL
CN(C[C@@H](CCN1CCC2(CC1)CS(=O)c1ccccc12)c1ccc(Cl)c(Cl)c1)S(=O)(=O)c1cccs1 ; cell line: PBMC ; strain: YU-2 R5 strain ; result: <6 µM
CC(C)[C@H](NC(=O)COc1cccc2ccccc12)C(=O)N[C@@H](Cc1ccccc1)[C@@H](O)[C@H](O)[C@H](Cc1ccccc1)NC(=O)[C@@H](NC(=O)COc1cccc2ccccc12)C(C)C ; cell line: PBLC ; strain: D34 ; result: 0.041 µM
CCOc1ccccc1N(CC(=O)Nc1ccc(S(=O)(=O)Nc2cccc(C(F)(F)F)c2)cc1)S(C)(=O)=O ; cell line: MT-2 ; strain: IIIB ; result: <10 µM
COC(=O)[C@H](C)NP(=O)(OC[C@@H]1C=C[C@H](n2cc(C)c(=O)[nH]c2=O)O1)Oc1ccccc1Cl ; cell line: PBMC ; strain: IIIB ; result: 0.003 µM
O=C(CCCCC(=O)Nc1sc2c(c1C(=O)O)CCCC2)Nc1sc2c(c1C(=O)O)CCCC2 ; cell line: MT-2 ; strain: IIIB ; result: >10 µM
CCCCCCCCCCCCCCCCCCCCCCOCC(C)(COCCCCCCCCCCCCCCCCCCCCCC)CO[C@]1(C(=O)O)C[C@H](OS(=O)(=O)O)[C@@H](NC(C)=O)[C@H]([C@H](OS(=O)(=O)O)[C@@H](COS(=O)(=O)O)OS(=O)(=O)O)O1 ; cell line: H9 ; strain: IIIB ; result: <10 µg/mL

For reference, 4 entries again:

smiles	cell line	strain	changes	result
CN1CCn2c3c(c(O)c2C1=O)C(=O)N(Cc1ccc(F)cc1)CC3	MT-4			<10 µM
O=C(c1c(O)cc(O)cc1O)c1c(-c2ccc(O)cc2)oc2cc(O)c3c(c12)O[C@H](c1ccc(O)cc1)[C@@H](O)C3	MOLT-4/HIV-1(IIIB) + MOLT-4	IIIB		>30 µg/mL
CC(C)(C)S(=O)(=O)C[C@@H](Cc1cccc2ccccc12)C(=O)N[C@@H](CCC(=O)O)C(=O)N[C@@H](Cc1ccccc1)[C@@H](O)[C@H](O)[C@H](Cc1ccccc1)NC(=O)[C@H](CCC(=O)O)NC(=O)[C@H](Cc1cccc2ccccc12)CS(=O)(=O)C(C)(C)C	PBLC	D34		>1 µM
O=C(O)c1cn(C2CC2)c2c(OC(F)F)c(N3CCN(c4ccc(F)cc4)CC3)c(F)cc2c1=O	MOLT-4	IIIB		0.043 µM